Measured values from several laboratories, pooled; numbers as filed in NIAID ChemDB.

Shared fields: growth or infection tests; agent: HIV-1; method: syncytia; read-out: inhibition

Two numbers with a dash give a range or band.

SMILES | strain | mutations | tested at | cells | result
Nc1cc(S(=O)(=O)O)c2ccccc2c1N | IIIB | - | 3.4 µM | MOLT-4/HUT-78 | 7%
C=C1CC[C@@H](OC(=O)CCC(=O)OC2CC(COP(=O)(O)OC3CC(COP(=O)(O)OC4CC(CO)OC4n4cnc5c(N)ncnc54)OC3n3cnc4c(N)ncnc43)OC2n2cnc3c(N)ncnc32)C/C1=C/C=C1\CCC[C@]2(C)[C@@H]([C@@H](C)/C=C/[C@H](C)C(C)C)CC[C@@H]12 | IIIB | - | 300 µM | SupT1 + Sup-T1 | 91.7%
CC(S)C(=O)NCC(=O)O | - | - | 600 µg/mL | H9 | 93%
CC(C)C[C@H](NC(=O)[C@H](C)NC(=O)C[C@H](O)[C@H](CC(C)C)NC(=O)[C@@H](NC(=O)[C@H](Cc1ccc(O)cc1)NC(=O)OCc1ccccc1)C(C)C)[C@@H](O)CC(=O)O | - | - | 40 µM | MT-4 | 0%
CCCCCCCCCCCCCCCC(=O)NC1C(COP(=O)(O)OC2CC(COP(=O)(O)OC3CC(CO)OC3n3cnc4c(N)ncnc43)OC2n2cnc3c(N)ncnc32)OC(n2cnc3c(N)ncnc32)C1O | - | - | 100 µM | - | 91%
N#CC1C=Cc2c(ccc3ccccc23)N1C(=O)OCCCl | IIIB | - | 50 µM | MOLT-3 | 0%
Cc1c2ccnc(Cl)c2cc2c3cn(C)ccc-3nc12 | - | - | 1 µM | MT-2 | 100%
CC(C)CC(NC(=O)[C@H](C)NC(=O)C[C@H](O)[C@H](CC(C)C)NC(=O)[C@@H](NC(=O)[C@H](Cc1c[nH]c2ccccc12)NC(=O)OCc1ccccc1)C(C)C)[C@@H](O)CC(=O)O | - | - | 40 µM | MT-4 | 0%
O=P(O)(O)OP(=O)(O)OP(=O)(O)O | IIIB | - | 160 µg/mL | MOLT-4/MOLT-3 | 0%
COC(=O)[C@@H](NC(=O)[C@@H](NC(=O)C[C@H](O)[C@H](CC(C)C)NC(=O)[C@@H](NC(=O)[C@H](Cc1c[nH]c2ccccc12)NC(=O)OCc1ccccc1)C(C)C)C(C)C)C(C)C | - | - | 40 µM | MT-4 | 0%
COC(=O)N1C=CC=C(C(C)=O)C1C#N | IIIB | - | 50 µM | MOLT-3 | 0%
Nc1ncnc2c1ncn2COCCOP(=O)([O-])O[C@@H]1[C@H](O)[C@@H](COP(=O)([O-])O[C@@H]2[C@H](O)[C@@H](CO)O[C@H]2n2cnc3c(N)ncnc32)O[C@H]1n1cnc2c(N)ncnc21 | - | - | 300 µM | SupT1 + Sup-T1 | 99%
CC(C)C[C@H](NC(=O)[C@@H](NC(=O)[C@H](Cc1c[nH]c2ccccc12)NC(=O)C(F)(F)F)C(C)C)[C@@H](O)CC(=O)N[C@H](C(=O)N[C@H](C(=O)OCc1ccccc1)C(C)C)C(C)C | - | - | 40 µM | MT-4 | 0%
Nc1ncnc2c1ncn2[C@@H]1O[C@H](COP(=O)(O)O[C@@H]2[C@H](O)[C@@H](COP(=O)(O)O[C@@H]3[C@H](O)[C@@H](COP(=O)(O)O[C@@H]4[C@H](O)[C@@H](CO)O[C@H]4n4cnc5c(N)ncnc54)O[C@H]3n3cnc4c(N)ncnc43)O[C@H]2n2cnc3c(N)ncnc32)[C@@H](O)[C@H]1O | IIIB | - | 300 µM | PBL | 2.3%
C=C(C)[C@@H]1CC[C@]2(C(=O)NCCCCCCCC(=O)N[C@@H](CC(C)C)[C@@H](O)CC(=O)O)CC[C@]3(C)[C@H](CC[C@@H]4[C@@]5(C)CC[C@H](O)C(C)(C)[C@@H]5CC[C@]43C)[C@@H]12 | LAI-R(GP41-R22A I84S) | R22A I84S | 10 µM | HeLa P4 + HeLa | 31%
CC(=O)Nc1ccn([C@H]2CS[C@@H](COC(C)=O)O2)c(=O)n1 | BRU | - | 100 µM | MT-4 | 100%
Cc1cc(C)c(S(=O)(=O)OCC2OC3OC4C(CO)OC(OC5C(CO)OC(OC6C(CO)OC(OC7C(CO)OC(OC8C(CO)OC(OC9C(C[n+]%10ccccc%10)OC(OC2C(O)C3O)C(O)C9O)C(O)C8O)C(O)C7O)C(O)C6O)C(O)C5O)C(O)C4O)c(C)c1 | LAV-1 | - | 42 µg/mL | MOLT-4 | 100%
O=C(O)C(O)c1ccccc1 | IIIS | - | 50 µg/mL | MT-2 | 100%
Cc1c(C)c2c(c(C)c1OC(=O)OC1CC(COP(=O)(O)OC3CC(COP(=O)(O)OC4CC(CO)OC4n4cnc5c(N)ncnc54)OC3n3cnc4c(N)ncnc43)OC1n1cnc3c(N)ncnc31)CCC(C)(CCCC(C)CCCC(C)CCCC(C)C)O2 | IIIB | - | 300 µM | SupT1 + Sup-T1 | 98.3%
N#CC1C=Cc2c(ccc3ccccc23)N1C(=O)c1ccc(Cl)cc1 | IIIB | - | 50 µM | MOLT-3 | 0%
CC[C@H](NC(=O)[C@@H](NC(=O)[C@H](Cc1c[nH]c2ccccc12)NC(=O)OCc1ccccc1)C(C)C)[C@@H](O)CC(=O)N[C@@H](C)C(=O)NC(CC(C)C)[C@@H](O)CC(=O)OC | - | - | 40 µM | MT-4 | 0%
CCCCCCCCCCCC(=O)N(CCCCCCCCCCC(=O)O)CC(O)C(O)C(O[C@@H]1O[C@H](CO)[C@H](O)[C@H](O)[C@H]1O)C(O)CO | LAI | - | 201 µM | C8166 | 100%
CCCCCCCCCCCCCCCC(=O)NCC1OC(n2cnc3c(N)ncnc32)C(OP(=O)(O)OCC2OC(n3cnc4c(N)ncnc43)C(OP(=O)(O)OCC3CC(O)C(n4cnc5c(N)ncnc54)O3)C2O)C1O | IIIB | - | 100 µM | SupT1 + Sup-T1 | 85.1%
N#CC1C=Cc2ccccc2N1C(=O)c1ccc(Cl)cc1 | IIIB | - | 17.8 µM | MT-2 | 100%
Nc1ncnc2c1ncn2COCCOP(=O)([O-])O[C@@H]1C[C@@H](COP(=O)([O-])O[C@@H]2C[C@@H](COP(=O)([O-])O[C@@H]3C[C@@H](CO)O[C@H]3n3cnc4c(N)[n+](Cc5ccccc5)cnc43)O[C@H]2n2cnc3c(N)ncnc32)O[C@H]1n1cnc2c(N)ncnc21 | - | - | 10 µM | SupT1 + Sup-T1 | 81%
N[C@H]1CONC1=O | N1T | - | 5 µg/mL | CEM | 100%
CC(C)C[C@H](NC(=O)[C@@H](O)[C@H](N)Cc1ccccc1)C(=O)O | IIIB | - | 120 µg/mL | HuT-78 + HUT 78 | 89%
OCCCCCCOc1ccc(-c2ccccc2)cc1 | GB8 | - | 15 µg/mL | JM | 100%
Nc1ncnc2c1ncn2C1OC(COP(=O)(O)OC2C(O)C(COP(=O)(O)OC3C(O)C(CO)OC3n3cnc4c(N)ncnc43)OC2n2cnc3c(N)ncnc32)C(F)C1N | - | - | 300 µM | SupT1 + Sup-T1 | 89%
C=C(C)[C@@H]1CC[C@]2(C(=O)NCCCCCCCC(=O)N[C@@H](CC(C)C)[C@@H](O)CC(=O)O)CC[C@]3(C)[C@H](CC[C@@H]4[C@@]5(C)CC[C@H](O)C(C)(C)[C@@H]5CC[C@]43C)[C@@H]12 | LAI | GP41-I69V | 10 µM | HeLa P4 + HeLa | >99%
C[C@H](CCC(=O)N[C@@H](Cc1cc(I)c(O)cc1I)C(=O)O)[C@H]1CC[C@H]2[C@@H]3[C@H](O)CC4C[C@H](O)CC[C@]4(C)[C@H]3CC[C@]12C | IIIB | - | 0.001 µg/mL | H9 | 67.4%
NC(=O)CC[C@H](NC(=O)COc1cccc(NC(=O)[C@@H](N)Cc2ccc(O)cc2)c1)C(=O)N[C@@H](Cc1c[nH]c2ccccc12)C(=O)N[C@@H](CC(=O)O)C(=O)N[C@@H](Cc1ccccc1)C(=O)NCC(=O)O | GUN1 WT | - | 100 µg/mL | MT-4 | 10–50%
CC(=O)OC[C@H]1O[C@@H](n2ccc(N)nc2=O)CS1 | BRU | - | 10 µM | MT-4 | 100%
CCCCCCCCCCCCCCCC(=O)OCC(COC(=O)CCC(=O)OCC1CC(OP(=O)(O)OCC2CC(OP(=O)(O)OCC3CC(O)C(n4cnc5c(N)ncnc54)O3)C(n3cnc4c(N)ncnc43)O2)C(n2cnc3c(N)ncnc32)O1)OC(=O)CCCCCCCCCCCCCCC | IIIB | - | 300 µM | SupT1 + Sup-T1 | 99.2%
CCCCOC(=O)N1c2ccc3ccccc3c2C=CC1C#N | IIIB | - | 50 µM | MOLT-3 | 49.5%
CCCCCCCCCCCCCCCC(=O)NCC1OC(n2cnc3c(N)ncnc32)C(OP(=O)(O)OCC2CC(OP(=O)(O)OCC3OC(n4cnc5c(N)ncnc54)C(O)C3O)C(n3cnc4c(N)ncnc43)O2)C1O | IIIB | - | 100 µM | SupT1 + Sup-T1 | 100%
Nc1ncnc2c1ncn2C1OC(COP(=O)(O)OC2C(O)C(COP(=O)(O)OC3C(O)C(CO)OC3n3cnc4c(N)ncnc43)OC2n2cnc3c(N)ncnc32)C(F)C1Cl | - | - | 300 µM | SupT1 + Sup-T1 | 50%
O=C(CCCCCCCCCCC(=O)Nc1cc(S(=O)(=O)O)cc2cc(S(=O)(=O)O)cc(O)c12)Nc1cc(S(=O)(=O)O)cc2cc(S(=O)(=O)O)cc(O)c12 | - | - | 20 µg/mL | MOLT-3 | 82%
CC(C)OC(=O)N1c2ccc3ccccc3c2C=CC1C#N | IIIB | - | 50 µM | MOLT-3 | 0%
CC1=C(/C=C/C=C/C=C/C=C/C(=O)OC[C@H]2O[C@@H](n3ccc(N)nc3=O)CS2)C(C)(C)CCC1 | BRU | - | 100 µM | MT-4 | 100%

3 of the rows above, restated:

SMILES	strain	mutations	tested at	cells	result
N#CC1C=Cc2c(ccc3ccccc23)N1C(=O)c1ccc(Cl)cc1	IIIB	-	50 µM	MOLT-3	0%
CC(C)OC(=O)N1c2ccc3ccccc3c2C=CC1C#N	IIIB	-	50 µM	MOLT-3	0%
CC(=O)OC[C@H]1O[C@@H](n2ccc(N)nc2=O)CS1	BRU	-	10 µM	MT-4	100%

Blank or dashed fields: not listed here. Percent inhibition refers to the dose given; in toxicity tests it is the harm to the cells. Conditions beyond the fields shown may differ between rows.